Compound potency records, mixed from different reports. Data source: NIAID ChemDB in PubChem.

Common to all: growth or infection tests; species: Toxoplasma gondii; measure: EC50

Lines come from different laboratories, so protocols vary. ECn is the concentration giving n% inhibition of infection, replication or growth. An empty or dashed field is not shown. a–b is a range or a potency band.

smiles | cells | strain or isolate | result
COC(=O)c1ccnc2c1C(=O)c1c(O)cccc1C2=O | - | - | 1 µg/mL
CCCC1=C(OCCCCCCO)C(C)SC1=O | - | RH | 29.9 µM
O=C1C(=O)c2ccccc2C(O)=C1C1CCC(c2ccc(Cl)cc2)CC1 | - | RH | 0.001–0.1 µM
Nc1ccc(S(=O)(=O)Nc2ncc(OS(=O)(=O)O)cn2)cc1 | - | - | >250 µg/mL
Cc1[nH]c(=O)cc2c1C(=O)c1cccc(O)c1C2=O | - | - | 2 µg/mL
Cc1cc2c(o1)C(=O)c1cc3ncsc3cc1C2=O | THP-1 | - | 0.0007 µM
CC(C)(C)OC(=O)NCCn1ccc2c1C(=O)C=CC2=O | THP-1 | RH | 0.0021 µM
CC1(C)CC2=C(O1)C(=O)C(Br)=CC2=O | THP-1 | - | 0.001 µM
O=C1c2ccccc2C(=O)c2cc3ccccc3cc21 | - | - | 0.42 µg/mL
CNC1[C@H]2CN(c3nc4c(cc3F)c(=O)c(C(=O)O)cn4C3CC3)C[C@@H]12 | - | - | 4.3 µg/mL
Cc1cc(NS(=O)(=O)c2ccc(N)cc2)no1 | - | RH | 1.1 µg/mL
COc1ccc(OC)c2c1ccn2CCBr | THP-1 | RH | 0.0021 µM
O=C1c2ccccc2C(=O)c2cc(=O)[nH]cc21 | - | - | 1.3 µg/mL
CC1(C)CC2=C(O1)C(=O)c1cc3ncsc3cc1C2=O | THP-1 | - | 0.0009 µM
O=C(NC(=S)Nc1c(Cl)cccc1Cl)c1ccccc1COc1ccc(Cl)cc1 | Human foreskin fibroblasts (HFF) | RH beta-gal | 52 µM
COc1ccc(OC)c(Cc2cnc3nc(N)nc(N)c3c2C)c1 | - | RH | 0.0069 µg/mL
Cc1c(F)c(N2CCNC(C)C2)cc2c1c(=O)c(C(=O)O)cn2C1CC1 | - | - | 2.4 µg/mL
COC(=O)C1C=CNc2c(O)c3c(c(O)c21)C(=O)C=CC3=O | - | - | 2.18 µg/mL
COc1ccc(OC)c2c1ccn2CCNC(=O)OC(C)(C)C | THP-1 | RH | 0.0012 µM
O=C(NC(=S)Nc1ccc(Cl)cc1Cl)c1ccccc1COc1ccc(F)cc1 | Human foreskin fibroblasts (HFF) | RH beta-gal | 69 µM
O=C1C=C(Br)C(=O)c2ccccc21 | - | - | 1.28 µg/mL
COc1ccc(OC)c2c1ccn2CCN=[N+]=[N-] | THP-1 | RH | 0.0034 µM
COC(=O)c1cc2c(s1)C(=O)C=CC2=O | THP-1 | - | 0.001 µM
COc1ccc(NC(=S)NC(=O)c2ccccc2COc2ccc(OC)cc2)cc1 | Human foreskin fibroblasts (HFF) | RH beta-gal | 57 µM
O=C1C(=O)c2ccccc2C(O)=C1C1CCC(c2ccc(Cl)cc2)CC1 | - | RH | 0.03 µM
COC(=O)C1C=CNC2=C1C(=O)c1c(OC)cccc1C2=O | - | - | 1.25 µg/mL
COc1c(N2C[C@@H]3C(CN)[C@@H]3C2)c(F)cc2c(=O)c(C(=O)O)cn(C3CC3)c12 | - | - | 30 µg/mL
COc1ccc(OC)c2[nH]c(C(=O)O)cc12 | THP-1 | RH | 0.0007 µM
Cc1[nH]c2nc(N)[nH]c(=O)c2c1CSc1ccncc1 | - | - | 831 µM
COc1c(N2C[C@@H]3C(CN)[C@@H]3C2)c(F)cc2c(=O)c(C(=O)O)cn(-c3ccc(F)cc3F)c12 | - | - | 22 µg/mL
COc1ccc(OCc2ccccc2C(=O)NC(=S)Nc2cc(Cl)ccc2Cl)cc1 | Human foreskin fibroblasts (HFF) | RH beta-gal | 57 µM
CCCCCCCCCCC1SC(=O)C(CC)=C1O | - | RH | 9.9 µM
CN1CCC(c2cc(-c3ccncc3)c(-c3ccc(F)cc3)[nH]2)CC1 | - | TG-PKG FLAG T761M-KO | 4.9 µM
COc1ccc(OCc2ccccc2C(=O)NC(=S)Nc2cccc(C)c2)cc1 | Human foreskin fibroblasts (HFF) | RH beta-gal | 109 µM
CCc1nc(N)nc(N)c1-c1ccc(Cl)cc1 | - | RH | <0.47 µg/mL

Repeating the final 4 entries:

smiles | cells | strain or isolate | result
CCCCCCCCCCC1SC(=O)C(CC)=C1O | - | RH | 9.9 µM
CN1CCC(c2cc(-c3ccncc3)c(-c3ccc(F)cc3)[nH]2)CC1 | - | TG-PKG FLAG T761M-KO | 4.9 µM
COc1ccc(OCc2ccccc2C(=O)NC(=S)Nc2cccc(C)c2)cc1 | Human foreskin fibroblasts (HFF) | RH beta-gal | 109 µM
CCc1nc(N)nc(N)c1-c1ccc(Cl)cc1 | - | RH | <0.47 µg/mL